{"source": "patent US20220387615A1", "about": "“COMPOSITIONS COMPRISING ENZYME CLEAVABLE LINKER PLATFORMS AND CONJUGATES THEREOF” (Danmarks Tekniske Universitet, priority 2019, published 2022)", "test_system": "Amano Lipase from Pseudomonas fluorescens", "test": "Lipase test of linker X8: cleavage and model drug release", "assay_type": "biochemical", "protocol": "Compound X8 was exposed to lipase in phosphate buffered solutions at pH 6 and 7.4. […] The pH 6 and 7.4 tests were conducted to determine if any difference in the rate of intramolecular lactonisation would be observed. Initial tests involved incubation of the linker (1 mM in 2% DMSO/buffer) with 1 mg/mL lipase (>20 U/mL) at room temperature (FIG. 16). Caffeine was included as an internal standard. Aliquots were taken out at different time points and LC-MS and HPLC used for analysis."}
{"molecule": "CCCCCCCC(=O)OCCN(CC(=O)OCC(=O)c1ccc(Br)cc1)C(=O)c1ccccc1", "note": "[Example X8, 2-(N-(2-(2-(4-bromophenyl)-2-oxoethoxy)-2-oxoethyl)benzamido)ethyl octanoate]", "values": [{"measurement": "accumulation of intermediate X9", "setting": "FIG. 17, conversion over 114 min", "result": "negligible accumulation"}, {"measurement": "accumulation of X9", "setting": "pH 6, 1 mg/mL lipase, room temperature", "result": "major accumulation"}, {"measurement": "accumulation of the intermediate X9", "setting": "pH 7.4, 1 mg/mL lipase, room temperature", "result": "no significant accumulation"}]}
